Broadly, the IC50 is the concentration needed to halve the response being measured. Read a low IC50 as higher potency.

Assay [1] addresses T1, PBP2 (Neisseria gonorrhoeae, UniProt P08149, H541N).
T1 construct: endogenous in cells; host or cells: N. gonorrhoeae ATCC 19424, isolated membrane preparation
The assay can be described thus: PBP-binding assay (Bocillin FL) in isolated membrane preparations. On the set-up: species or system Neisseria gonorrhoeae ATCC 19424.

The target in assay [2] is T2, PBP2 (Neisseria gonorrhoeae, UniProt P08149, A510V/A516G/A574V/F504L/H541N/I556V/I566V/K555Q/P552V).
T2 construct: endogenous in cells; host or cells: N. gonorrhoeae ATCC 49226, isolated membrane preparation
Description: biochemical. The class given is binding, Neisseria gonorrhoeae ATCC 49226. As to conditions: IC50 PBP2, strain ATCC 49226; membrane preparation, 30 min drug then Bocillin FL.

`C[C@@H](O)[C@H]1C(=O)N2C(C(=O)O)=C(S[C@@H]3CN[C@H](C(=O)Nc4cccc(C(=O)O)c4)C3)[C@H](C)[C@H]12` [ETP, ertapenem]: the half-maximal inhibitory concentration (IC50) in assay [1] (IC50 PBP2 (Table S1), strain ATCC 19424) is 63.1 nM.
As to `C[C@@H](O)[C@H]1C(=O)N2C(C(=O)O)=C(S[C@@H]3CN[C@H](C(=O)N(C)C)C3)[C@H](C)[C@H]12` [MEM, meropenem], the IC50 in assay [1] (IC50 PBP2, strain ATCC 19424, membrane preparation, 30 min drug then Bocillin FL) is 78.2 nM; in assay [2], 52.2 nM.
